The values below are quoted from earlier work in publication PMC7066149.

This data set addresses HIV-1 capsid protein CA (Human immunodeficiency virus 1) (UniProt O93182).

A word on the Kd: it is the constant that tells how readily two partners part at equilibrium. In the case of Cyclophilin A (from UniProt P62937), the dissociation constant Kd was 10 µM.
